Assay results reported in patent US20230233533A1, “COMPOSITIONS, METHODS OF TREATING AND PREVENTING FUNGAL INFECTIONS, AND METHODS OF INHIBITING PRP8 INTEIN EXPRESSION” (Health Research, Inc., priority 2020, published 2023).

System: C. neoformans H99 strain
Test: Fungal susceptibility test, broth microdilution MIC
Assay type: cell-based, Cryptococcus neoformans
Conditions: CC50 A549 / MIC C. neoformans
Method: Fungal susceptibility test—The fungal susceptibility test was carried out with a compound concentration series as described. […] The broth microdilution method was used to determine the compound MIC values against C. neoformans.
Fungal susceptibility test—The fungal susceptibility test was carried out with a compound concentration series as described. […] Microbes. Infect. […] The broth microdilution method was used to determine the compound MIC values against C. neoformans.

Row | SMILES | TI, therapeutic index (CC50/MIC)
1 | O=C(Nc1ccc([N+](=O)[O-])cc1F)c1nnsc1S(=O)(=O)c1ccc(Cl)cc1 [JMX1043, 5-((4-Chlorophenyl)sulfonyl)-N-(2-fluoro-4-nitrophenyl)-1,2,3-thiadiazole-4-carboxamide] | <1.3
2 | O=C(Nc1cc(F)c(F)c(F)c1)c1nnsc1S(=O)(=O)c1ccc(Cl)cc1 [JMX1044, 5-((4-Chlorophenyl)sulfonyl)-N-(3,4,5-trifluorophenyl)-1,2,3-thiadiazole-4-carboxamide] | 1.0
3 | O=C(Nc1cc(F)c(F)c(F)c1)c1nnsc1[S+]([O-])c1ccc(Cl)cc1 (stereo not shown) [JMX1044-2, 5-((4-Chlorophenyl)sulfinyl)-N-(3,4,5-trifluorophenyl)-1,2,3-thiadiazole-4-carboxamide] | 1.0
4 | O=C(Nc1c(F)cc(F)cc1F)c1nnsc1S(=O)(=O)c1ccc(Cl)cc1 [JMX1045, 5-((4-Chlorophenyl)sulfonyl)-N-(2,4,6-trifluorophenyl)-1,2,3-thiadiazole-4-carboxamide] | 1.0
5 | O=C(Nc1c(F)cc(F)cc1F)c1nnsc1[S+]([O-])c1ccc(Cl)cc1 (stereo not shown) [JMX1045-2, 5-((4-Chlorophenyl)sulfinyl)-N-(2,4,6-trifluorophenyl)-1,2,3-thiadiazole-4-carboxamide] | 19.6
6 | O=C(Nc1ccc(Cl)c(F)c1)c1nnsc1S(=O)(=O)c1ccc(Cl)cc1 [JMX1046, N-(4-Chloro-3-fluorophenyl)-5-((4-chlorophenyl)sulfonyl)-1,2,3-thiadiazole-4-carboxamide] | <2.9
7 | O=C(Nc1ccc(Cl)c(F)c1)c1nnsc1[S+]([O-])c1ccc(Cl)cc1 (stereo not shown) [JMX1046-2, N-(4-Chloro-3-fluorophenyl)-5-((4-chlorophenyl)sulfinyl)-1,2,3-thiadiazole-4-carboxamide] | 95.7
8 | O=C(Nc1ccc(F)cc1)c1nnsc1S(=O)(=O)c1ccc(Cl)cc1Cl [JMX1059, 5-((2,4-Dichlorophenyl)sulfonyl)-N-(4-fluorophenyl)-1,2,3-thiadiazole-4-carboxamide] | 5.4
9 | O=C(Nc1ccc(F)cc1)c1nnsc1S(=O)(=O)c1ccc(F)c(F)c1 [JMX1060, 5-((3,4-Difluorophenyl)sulfonyl)-N-(4-fluorophenyl)-1,2,3-thiadiazole-4-carboxamide] | 1.2
10 | O=C(Nc1ccc(F)cc1)c1nnsc1S(=O)(=O)c1ccc(F)cc1 [JMX1061, N-(4-Fluorophenyl)-5-((4-fluorophenyl)sulfonyl)-1,2,3-thiadiazole-4-carboxamide] | <1.4
11 | O=C(Nc1ccc(F)cc1)c1nnsc1S(=O)(=O)c1ccc(F)cc1F [JMX1062, 5-((2,4-Difluorophenyl)sulfonyl)-N-(4-fluorophenyl)-1,2,3-thiadiazole-4-carboxamide] | <1.3
12 | O=C(Nc1ccc(F)cc1)c1nnsc1S(=O)(=O)c1cccc(C(F)(F)F)c1 [JMX1063, N-(4-Fluorophenyl)-5-((3-(trifluoromethyl)phenyl)sulfonyl)-1,2,3-thiadiazole-4-carboxamide] | 21.9
13 | O=C(Nc1ccc(F)cc1)c1nnsc1[S+]([O-])c1cccc(C(F)(F)F)c1 (stereo not shown) [JMX1063-2, N-(4-Fluorophenyl)-5-((3-(trifluoromethyl)phenyl)sulfinyl)-1,2,3-thiadiazole-4-carboxamide] | 15.0
14 | O=C(Nc1ccc(F)cc1)c1nnsc1S(=O)(=O)c1ccc(Cl)c(Cl)c1 [JMX1064, 5-((3,4-Dichlorophenyl)sulfonyl)-N-(4-fluorophenyl)-1,2,3-thiadiazole-4-carboxamide] | 50.1
15 | O=C(Nc1ccc(F)cc1)c1nnsc1[S+]([O-])c1ccc(Cl)c(Cl)c1 (stereo not shown) [JMX1064-2, 5-((3,4-Dichlorophenyl)sulfinyl)-N-(4-fluorophenyl)-1,2,3-thiadiazole-4-carboxamide] | <2.4
16 | O=C(Nc1cccc(F)c1)c1nnsc1S(=O)(=O)c1ccc(Cl)cc1 [JMX 871, 5-((4-Chlorophenyl)sulfonyl)-N-(3-fluorophenyl)-1,2,3-thiadiazole-4-carboxamide] | 44.9
